Experimental data as given in PMC9757750 (Science Advances, 2022).

Biological target: T1, GST-p115 (1 to 651), ND (human, UniProt O60763 1-651)
T1 construct: also called N-terminal ARM domain; globular head
T1 sequence (looked up): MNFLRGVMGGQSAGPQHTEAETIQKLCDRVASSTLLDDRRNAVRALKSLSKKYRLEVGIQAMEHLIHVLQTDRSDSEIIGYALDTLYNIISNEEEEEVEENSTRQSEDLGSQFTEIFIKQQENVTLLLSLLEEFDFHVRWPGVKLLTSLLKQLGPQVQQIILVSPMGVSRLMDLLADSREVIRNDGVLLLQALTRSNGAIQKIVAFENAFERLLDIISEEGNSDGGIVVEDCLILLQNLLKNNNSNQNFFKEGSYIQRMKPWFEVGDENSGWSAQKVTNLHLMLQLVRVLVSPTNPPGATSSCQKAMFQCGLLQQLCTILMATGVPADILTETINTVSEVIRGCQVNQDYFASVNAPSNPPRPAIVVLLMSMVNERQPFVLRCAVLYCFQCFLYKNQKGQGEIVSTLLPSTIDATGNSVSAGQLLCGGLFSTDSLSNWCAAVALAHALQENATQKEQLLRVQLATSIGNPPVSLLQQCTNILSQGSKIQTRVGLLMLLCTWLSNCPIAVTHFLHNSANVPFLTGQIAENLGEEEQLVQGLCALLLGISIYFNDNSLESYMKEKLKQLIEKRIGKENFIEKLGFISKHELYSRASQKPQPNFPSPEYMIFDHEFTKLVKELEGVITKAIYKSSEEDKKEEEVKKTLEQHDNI
Experiment: pull-down

| Binder | binding result |
| --- | --- |
| His-LegA15 ΔΝ1 (95 to 471) (domain or fragment) DSAQSALIQATNSEGQSPLQYALQKQDFSTAKYFLDNGAKAGPIEKAVFEIALDSKAAKEFGFPPLPPEKEKLHPVKNFGLVLGIKTTSVDGTPSQFGHIAPTYQLMTDSVSHFAKSHPGNKNFQEIANAFQFSNEASAFKFSTPQRNPEAGNDLARRIQGGELTTIPVSCKGHAMGLSYVPDGPGSKSGYLVYTNRGLGAKSSEHGTHIFRIEDSSKITPEFINNMTSGHSNGASHDEIMSQIKAAAGNKEPIHHIKQKGQKNDNCTIANSKSNIEGILLCQKAREVGGFDKLTESDMDSVKKEYKEFTKHMRVEKVNELAKALKENPQDPDLNNLTKEYLKQHPNADPKLKQTLETALKQASESSMTLSQPGKTI | binds |
| His-LegA15 ΔΝ2 (195 to 471) (domain or fragment) APTYQLMTDSVSHFAKSHPGNKNFQEIANAFQFSNEASAFKFSTPQRNPEAGNDLARRIQGGELTTIPVSCKGHAMGLSYVPDGPGSKSGYLVYTNRGLGAKSSEHGTHIFRIEDSSKITPEFINNMTSGHSNGASHDEIMSQIKAAAGNKEPIHHIKQKGQKNDNCTIANSKSNIEGILLCQKAREVGGFDKLTESDMDSVKKEYKEFTKHMRVEKVNELAKALKENPQDPDLNNLTKEYLKQHPNADPKLKQTLETALKQASESSMTLSQPGKTI | binds |
